Assay results reported in US10029984B2, “Mono- or di-substituted indole derivatives as dengue viral replication inhibitors” (Janssen Pharmaceuticals, Inc., priority 2015, dated 2018).

Assays:
Format in all cases: cell-based, Dengue virus
DENV-2 16681 strain = assay: DENV-2 antiviral assay (eGFP-labeled virus in Vero cells); conditions: SI=CC50/EC50, DENV-2 antiviral assay
Procedure: The antiviral activity of all the compounds of the invention was tested against DENV-2 16681 strain which was labeled with enhanced green fluorescent protein (eGPF; Table 1). The culture medium consists of minimal essential medium supplemented with 2% of heat-inactivated fetal calf serum, 0.04% gentamycin (50 mg/mL) and 2 mM of L-glutamine. Vero cells, obtained from ECACC, were suspended in culture medium and 25 μL was added to 384-well plates (2500 cells/well), which already contain the antiviral compounds. Typically, these plates contain a 4-fold serial dilution of 9 dilution steps of the test compound at 200 times the final concentration in 100% DMSO (200 nL). In addition, each compound concentration is tested in quadruplicate (final concentration range: 25 μM-0.00038 μM). Finally, each plate contains wells which are assigned as virus controls (containing cells and virus in the absence of compound), cell controls (containing cells in the absence of virus and compound) and medium controls (containing medium in the absence of cells, virus and compounds). To the wells assigned as medium control, 25 μL of culture medium was added instead of Vero cells. Once the cells were added to the plates, the plates were incubated for 30 minutes at room temperature to allow the cells to distribute evenly within the wells. Next, the plates were incubated in a fully humidified incubator (37° C., 5% CO2) until the next day. Then, DENV-2 strain 16681, labeled with eGFP, was added at a multiplicity of infection (MOI) of 0.5. Therefore, 15 μL of virus suspension was added to all the wells containing test compound and to the wells assigned as virus control. In parallel, 15 μL of culture medium was added to the medium and cell controls. Next, the plates were incubated for 3 days in a fully humidified incubator (37° C., 5% CO2). At the day of the read out, the eGFP fluorescence was measured using an automated fluorescence microscope at 488 nm (blue laser). Using an in-house LIMS system, inhibition dose response curves for each compound were calculated and the half maximal effective concentration (EC50) was determined. Therefore, the percent inhibition (I) for every test concentration is calculated using the following formula: I=100*(ST−SCC)/(SVC−SCC); ST, SCC and SVC are the amount of eGFP signal in the test compound, cell control and virus control wells, respectively. The EC50 represents the concentration of a compound at which the virus replication is inhibited with 50%, as measured by a 50% reduction of the eGFP fluorescent intensity compared to the virus control. The EC50 is calculated using linear interpolation.

DENV-1 strain TC974#666 = assay: Tetravalent RT-qPCR assay Protocol A, serotype 1; conditions: RT-qPCR serotype 1 TC974#666
Procedure: (§1) The antiviral activity of the compounds of the invention was tested against DENV-1 strain TC974#666 (NCPV; Table 6), DENV-2 strain 16681 (Table 7), DENV-3 strain H87 (NCPV; Table 8) and DENV-4 strains H241 (NCPV; Table 9) in a RT-qPCR assay. Therefore, Vero cells were infected with either DENV-1, or -2, or -3, or -4 in the presence or absence of test compounds. At day 3 post-infection, the cells were lysed and cell lysates were used to prepare cDNA of both a viral target (the 3′UTR of DENV; table 2) and a cellular reference gene (β-actin, table 2). Subsequently, a duplex real time PCR was performed on a Lightcycler480 instrument. The generated Cp value is inversely proportional to the amount of RNA expression of these targets. Inhibition of DENV replication by a test compound result in a shift of Cp's for the 3′UTR gene. On the other hand, if a test compound is toxic to the cells, a similar effect on β-actin expression will be observed. The comparative ΔΔCp method is used to calculate EC50, which is based on the relative gene expression of the target gene (3′UTR) normalized with the cellular housekeeping gene (β-actin).
(§2) The culture medium consisted of minimal essential medium supplemented with 2% of heat-inactivated fetal calf serum, 0.04% gentamycin (50 mg/mL) and 2 mM of L-glutamine. Vero cells, obtained from ECACC, were suspended in culture medium and 75 μL/well was added in 96-well plates (10000 cells/well), which already contain the antiviral compounds. Typically, these plates contain a 4-fold serial dilution of 9 dilution steps of the test compound at 200 times the final concentration in 100% DMSO (500 nL; final concentration range: 25 μM-0.00038 μM). In addition, each plate contains wells which are assigned as virus controls (containing cells and virus in the absence of compound) and cell controls (containing cells in the absence of virus and compound). Once the cells were added in the plates, the plates were incubated in a fully humidified incubator (37° C., 5% CO2) until the next day. Then, DENV-1 strain TC974#666 at an MOI of 0.6, DENV-2 strain 16681 at an MOI of 0.01, DENV-3 strain H87 at an MOI of 1.0 and DENV-4 strains H241 at an MOI of 0.2 and SG/06K2270DK1/2005 at an MOI of 0.16, were added. Therefore, 25 μL of virus suspension was added to all the wells containing test compound and to the wells assigned as virus control. In parallel, 25 μL of culture medium was added to the cell controls. Next, the plates were incubated for 3 days in a fully humidified incubator (37° C., 5% CO2). After 3 days, the supernatant was removed from the wells and the cells were washed twice with ice-cold PBS (˜100 μL). The cell pellets within the 96-well plates were stored at −80° C. for at least 1 day. Next, RNA was extracted using the Cells-to-CT™ lysis kit, according to the manufacture's guideline (Applied Biosystems). The cell lysates can be stored at −80° C. or immediately used in the reverse transcription step.
(§3) In preparation of the reverse transcription step, mix A (table 3A) was prepared and 7.57 μL/well was dispensed in a 96-well plate. After addition of 5 μL of the cell lysates, a five minute denaturation step at 75° C. was performed (table 3B). Afterwards, 7.43 μL of mix B was added (table 3C) and the reverse transcription step was initiated (table 3D) to generate cDNA.
(§4) Finally, a RT-qPCR mix was prepared, mix C (table 4A), dispensed in 96-well LightCycler qPCR plates to which 3 μL of cDNA was added and the qPCR was performed according to the conditions in table 4B on a LightCycler 480. Using the LightCycler software and an in-house LIMS system, dose response curves for each compound were calculated and the half maximal effective concentration (EC50) and the half maximal cytotoxic concentration (CC50) were determined.

DENV-2 strain 16681 = assay: Tetravalent RT-qPCR assay Protocol A, serotype 2; conditions: RT-qPCR serotype 2 16681
Procedure: as §1, §2, §3, §4

DENV-3 strain H87 = assay: Tetravalent RT-qPCR assay Protocol A, serotype 3; conditions: RT-qPCR serotype 3 H87
Procedure: as §1, §2, §3, §4

DENV-4 strains H241 = assay: Tetravalent RT-qPCR assay Protocol A, serotype 4; conditions: RT-qPCR serotype 4 H241
Procedure: as §1, §2, §3, §4

| SMILES | SI (DENV-2 16681 strain; listed as 1A*) | SI (DENV-1 strain TC974#666) | SI (DENV-2 strain 16681) | SI (DENV-3 strain H87) | SI (DENV-4 strains H241) | SI (DENV-2 16681 strain; listed as 5B*) | SI (DENV-2 16681 strain; listed as 2A*) | SI (DENV-2 16681 strain; listed as 3A*) | SI (DENV-2 16681 strain; listed as 18A*) | SI (DENV-2 16681 strain; listed as 10B*) | SI (DENV-2 16681 strain; listed as 13B*) | SI (DENV-2 16681 strain; listed as 15A*) |
| --- | --- | --- | --- | --- | --- | --- | --- | --- | --- | --- | --- | --- |
| COc1cc(NC(C(=O)c2c[nH]c3cc(F)ccc23)c2ccc(F)cc2OC)cc(S(C)(=O)=O)c1 (single isomer, unassigned) [Enantiomer 1A, 1-(6-fluoro-1H-indol-3-yl)-2-(4-fluoro-2-methoxyphenyl)-2-((3-methoxy-5-(methylsulfonyl)phenyl)amino)ethanone] | 6654 | 642 | 4303 | 50 | 17 |  |  |  |  |  |  |  |
| COc1cc(NC(C(=O)c2c[nH]c3cc(OC)ccc23)c2ccc(F)cc2OC)cc(S(C)(=O)=O)c1 (single isomer, unassigned) [Enantiomer 5B, 2-(4-fluoro-2-methoxyphenyl)-1-(6-methoxy-1H-indol-3-yl)-2-((3-methoxy-5-(methylsulfonyl)phenyl)amino)ethanone] |  | 928 | 5868 | 28 | 27 | 14546 |  |  |  |  |  |  |
| COc1cc(NC(C(=O)c2c[nH]c3c(C)c(F)ccc23)c2ccc(F)cc2OC)cc(S(C)(=O)=O)c1 (single isomer, unassigned) [Enantiomer 2A, 2-(4-fluoro-2-methoxyphenyl)-1-(6-fluoro-7-methyl-1H-indol-3-yl)-2-((3-methoxy-5-(methylsulfonyl)phenyl)amino)ethanone] |  | 474 | 4858 | 57 | 16 |  | 7834 |  |  |  |  |  |
| COc1cc(NC(C(=O)c2c[nH]c3c(C)c(Cl)ccc23)c2ccc(F)cc2OC)cc(S(C)(=O)=O)c1 (single isomer, unassigned) [Enantiomer 3A, 1-(6-chloro-7-methyl-1H-indol-3-yl)-2-(4-fluoro-2-methoxyphenyl)-2-((3-methoxy-5-(methylsulfonyl)phenyl)amino)ethanone] |  | 545 | 20905 | 52 | 19 |  |  | 17249 |  |  |  |  |
| COc1cc(NC(C(=O)c2c[nH]c3ccc(OC(F)(F)F)cc23)c2ccc(F)cc2OC)cc(S(C)(=O)=O)c1 (single isomer, unassigned) [Enantiomer 18A, 2-(4-fluoro-2-methoxyphenyl)-2-((3-methoxy-5-(methylsulfonyl)phenyl)amino)-1-(5-(trifluoromethoxy)-1H-indol-3-yl)ethanone] |  | 7331 | 20747 | 333 | 130 |  |  |  | >28953 |  |  |  |
| COc1cc(NC(C(=O)c2c[nH]c3cc(OC)c(C)cc23)c2ccc(F)cc2OC)cc(S(C)(=O)=O)c1 (single isomer, unassigned) [Enantiomer 10B, 2-(4-fluoro-2-methoxyphenyl)-2-((3-methoxy-5-(methylsulfonyl)phenyl)amino)-1-(6-methoxy-5-methyl-1H-indol-3-yl)ethanone] |  | 921 | 6630 | 45 | 26 |  |  |  |  | 6770 |  |  |
| COc1cc(NC(C(=O)c2c[nH]c3c(F)c(F)ccc23)c2ccc(F)cc2OC)cc(S(C)(=O)=O)c1 (single isomer, unassigned) [Enantiomer 13B, 1-(6,7-difluoro-1H-indol-3-yl)-2-(4-fluoro-2-methoxyphenyl)-2-((3-methoxy-5-(methylsulfonyl)phenyl)amino)ethanone] |  |  | 5492 |  | 11 |  |  |  |  |  | 6211 |  |
| COc1cc(NC(C(=O)c2c[nH]c3ccc(C)cc23)c2ccc(F)cc2OC)cc(S(C)(=O)=O)c1 (single isomer, unassigned) [Enantiomer 15A, 2-(4-fluoro-2-methoxyphenyl)-2-((3-methoxy-5-(methylsulfonyl)phenyl)amino)-1-(5-methyl-1H-indol-3-yl)ethanone] |  | >712 | 4357 |  | 40 |  |  |  |  |  |  | >4057 |
